Measured values reported in ChEMBL document CHEMBL4425139, “Discovery, characterization, and lead optimization of 7-azaindole non-nucleoside HIV-1 reverse transcriptase inhibitors” (Bioorg Med Chem Lett, 2016).

How the values were obtained:
[1] = test system: Human immunodeficiency virus type 1 reverse transcriptase (Human immunodeficiency virus 1), Q72547 [V108I]; experiment: Inhibition of HIV1 RT V108I mutant using 17-mer DNA/Alexa Fluor 488 5'-end labeled DNA/Alexa Fluor 555-aha-dUTP as primer/template/substrate preincubated for 10 mins followed substarte addition measured after 30 mins by FRET assay
[2] = test system: Human immunodeficiency virus type 1 reverse transcriptase (Human immunodeficiency virus 1), Q72547 [K103N]; experiment: Inhibition of HIV1 RT K103N mutant using 17-mer DNA/Alexa Fluor 488 5'-end labeled DNA/Alexa Fluor 555-aha-dUTP as primer/template/substrate preincubated for 10 mins followed substarte addition measured after 30 mins by FRET assay
[3] = test system: Human immunodeficiency virus type 1 reverse transcriptase (Human immunodeficiency virus 1), Q72547 [E138K]; experiment: Inhibition of HIV1 RT E138K using 17-mer DNA/Alexa Fluor 488 5'-end labeled DNA/Alexa Fluor 555-aha-dUTP as primer/template/substrate preincubated for 10 mins followed substarte addition measured after 30 mins by FRET assay

Measured: inhibition

CC1(C)CC(=O)c2c(nc3c(c(C#N)cn3Cc3ccccc3)c2-c2c(F)cccc2F)C1
inactive: all assays above

The source made the active and inactive calls.
